# Results: publication PMC9082315 (Frontiers in Immunology, 2022)
# Target: monomeric SARS-CoV-2 RBD (S residues 332-534) with Flag peptide and 8xHis-tag (SARS-CoV-2, WA1 (Wuhan-like), UniProt P0DTC2, biotin (only in the flow cytometry on bacteria))
# Assay: SPR
# Conditions: both partners purified
row,Binder,Kd
1,"Nb 2.15, monomeric nanobody (VHH) VHH: QVQLVESGGGSVQAGGSLKLSCAASGYASWARKCIGWFRQAPGQEREGVAAIFDFDGSTYYSDSVKGRFTISGDNAKNTVSLQMNSLLPKDTAVYYCTVAFGTCDNWYRGRGDYWGQGTQVTVSS",~300 pM

# Target: monomeric SARS-CoV-2 RBD with Flag peptide and 8xHis-tag (RBD-FH) (SARS-CoV-2, WA1 (Wuhan-like), UniProt P0DTC2)
# Assay: SPR
# Conditions: both partners purified
Binder,koff,kon
2.1 Nb (VHH) VHH: QVQLVESGGGSVQAGGSLRLSCAAFGATISSAHMGWFRQAPGKEREGVAFRYTDGSSTYYTTSVRGRFTISQDNAKNTVYLQMNSLKPEDTAMYYCASNPSWGRLVGGQYNNWGQGTQITVSS,0.00233 s⁻¹,1.34e+06 M⁻¹ s⁻¹
2.11 Nb (VHH) VHH: QVQLVESGGGSVQAGGSLRLSCAASGDASNRKCVSWFRRAPGKEREGVALIFPVGSSTAYADSVKGRFTISQDSAKDTVYLQMNNLKPEDSGTYYCAAVSWGGRCNLETQTVTFWGQGTQVTVSS,0.00497 s⁻¹,2.29e+06 M⁻¹ s⁻¹
2.15 Nb (VHH) VHH: QVQLVESGGGSVQAGGSLKLSCAASGYASWARKCIGWFRQAPGQEREGVAAIFDFDGSTYYSDSVKGRFTISGDNAKNTVSLQMNSLLPKDTAVYYCTVAFGTCDNWYRGRGDYWGQGTQVTVSS,0.000778 s⁻¹,2.02e+06 M⁻¹ s⁻¹
1.16 Nb (VHH) VHH: QVQLVESGGGSVQAGGSLRLSCAASGNTSKRKCVGWFRRAPGKEREGVTLIYTVGGSTVYADSVKGRFTISQDNAKDTVYLQMNSLKPEDSAMYYCAAESWGRQCNLETHRFTFWGQGTQVTVSS,0.00705 s⁻¹,1.96e+06 M⁻¹ s⁻¹
